Test results taken from patent US20200123233A1.

B1: IV121 (VHH)
VHH: QVQLQESGGGLVQPGGSLRLSCTASRTDISFNPMAWYRQAPGQQRELVASITSGGTTNYANSVKGRFTISRDNPKNTMYLQMNSLKPEDTAVYYCNGRGPRYTTTGWITDDYWGQGTQVTVSS
B2: IV122 (VHH)
VHH: QVQLQQSGGGLVQPGGSLRLSCAASRSDFAFNPMGWYRQAPGKQRELVAVLTTGGTTNYADSVKGRFTISRDNARNTVYLQMNSLKPEDTAVYYCYARGPRKAPTGWITDDYWGQGTQVTVSS
B3: IV123 (VHH)
VHH: QVQLQESGGGLVQPGGSLRLSCAASRSGFSFNPMGWYRQAPGKQRELVATITSGGTTNYADSVKGRFTISTDNAKTTVFLQMNSLKPEDTAVYYCNARGPRRGTAGWITDDYWGQGTQVTVSS
B4: IV126 (VHH)
VHH: QVQLQESGGGLVQPGGSLRLSCAASRTDISFNPMGWYRQAPGKQRELVATMTSGGTTGYADSVKGRFTISRDNPKNTLYLQMNSLEPEDTAVYYCHARGPRYATTGWFTDDYWGQGTQVTVSS
B5: IV127 (VHH)
VHH: QVQLQESGGGLVQPGGSLRLSCAASRSGFVFNPMGWYRQAPGKQRELVAVITASLTTNYADSVKGRFTISRDNTGNTAYLQMNSLKPEDTAVYYCYGRGPRKAPTGWITDDYWGQGTQVTVSS
B6: IV132 (VHH)
VHH: QVQLQESGGGLVQPGGSLRLSCAASVSGFIFNPMGWYRQARGKQREEVAVLTTGGTTKYADSVKDRFTISRDNARNTVDLQMNSLKPEDTAVYYCYARGPRHVPTGWITDDYWGQGTQVTVSS
B7: IV134 (VHH)
VHH: QVQLQESGGGLVQAGGSLRLSCAASGSGFSFNPMGWYRQAPGKQRELVASITSGGTTNYVDSVKGRFTISRGNAKNTVYLQMNSLKPEDTAVYYCAAEGPRRRGSTWYTDNYWGQGTQVTVSS
B8: IV135 (VHH)
VHH: QVQLQQSGGGLVQPGGSLRLSCAASRGDISFNPMGWYRQAPGKQRELVATITNGGTTNYADSVKGRFTISRDNAETAVYLQMNSLKPEDTAVYYCNARGPRHATTGWYTDDYWGQGTQVTVSS
B9: IV136 (VHH)
VHH: QVQLQESGGGLVQPGGSLRLSCAASRSGFSFNPMGWYRQAPGKQRELVATITSGGTTNYADSVKGRFTISTDNAKTTVYLQMNSLKPEDTAVYYCNGRGPRRATTGWITDDYWGQGTQVTVSS
B10: IV33 (VHH)
VHH: QVQLQQSGGGLVQAGGSLRLSCAASGRTLNNYAMGWFRQAPGAEREFVGAISASGDSTQYTESVQGRFSISKDLAKSTVYLDMNSLKPEDTAVYYCAADQKTLTFYTSRLRSRYDYWGQGTQVTVSS
B11: IV35 (VHH)
VHH: QVQLQESGGGLVQAGGSLRLSCAASGRTLNNYAMGWFRQAPGAEREFVGAISASGDSTDYTESVQGRFTISKDNAKSTVYLDMNSLKPEDTAVYYCAADRKTLTFYTSRLRSRYDYWGQGTQVTVSS
B12: IV36 (VHH)
VHH: QVQLQESGGGLVQAGGSLRLSCAASGRTLNNYAMGWFRQAPGAEREFVGAISASGDSTQYTESVQGRFTISKDYAKSTVYLDMNSLKPEDTAVYYCAADQKTLTYYTSRLRSRYDYWGQGTQVTVSS
B13: IV40 (VHH)
VHH: QVQLQESGGGLVQAGGSLRLSCAASGHTLNNYAMGWFRQGPGAEREFVGAISASGDSTQYTESVQGRFTISKDNAKRTVYLDMNSLKPEDTAVYYCAADGKTLTYYTSRLRSQYDYWGQGTQVTVSS
B14: IV42 (VHH)
VHH: QVQLQQSGGGLVQAGESLRLSCAASGRTLNNYAMGWFRQAPGAEREFVGAISASGDSTQYTESVQGRFTISKDNAKSTVYLDMNSLKPEDTAVYYCAADRKTLTFYTSRLRSRYDYWGQGTQVTVSS
B15: IV8 (VHH)
VHH: QVQLQESGGGLVQAGGFLRLSCAASGRSFNTYAMGWFRQAPGKEREFVAGITRSGTATDYADSVKGRFTISRDNARNTVYLQMNRLKSEDSAVYYCAAHASYDRMIYSEYKYWGQGTQVTVSS
B16: IV21 (VHH)
VHH: QVQLQQSGGGLVQAGGFLRLSCAASGRSFNTYAMGWFRQAPGKEREFVAGITRSGTATDYIDSVKGRFTISRDNARDTVYLQMNRLNPEDSAVYYCAAHANYDRMINSEYKYWGQGTQVTVSS
B17: IV23 (VHH)
VHH: QVQLQESGGGLVQAGGFLRLSCAASGRSFNTYAMGWFRQAPGKEREFVAGITRSGTATDYIDSVKGRFTISRDNARDTVYLQMNRLNPEDSAVYYCAAHANYDRMINSEYKYWGQGTQVTVSS
B18: IV45 (VHH)
VHH: QVQLQQSGGGLVQAGGFLRLSCAASGRSFNTYAVGWFRQAPGKEREFVAGITRSGTATDYADSVKGRFTISRDNARNTVYLQMNRLKPEDSAVYYCAAHASYDRMINSEYKYWGQGTQVTVSS
B19: IV47 (VHH)
VHH: QVQLQQSGGGLVQAGGFLRLSCAASGRSFNTYAMGWFRQAPGKEREFVAGITRSGTATEYADSVKGRFTISRDNARNTVLLQMNRLKPEDSAVYYCAAHANYDRMINSEYKYWGQGTQVTVSS
B20: IV48 (VHH)
VHH: QVQLQESGGGLVQAGGFLRLTCAASGRSFNTYAMGWFRQAPGKDRKFVAGITRSGTVTDYADSVKGRFTISRDNARNTVYLQMNRLKPEDSAVYYCAGHASYDRMINSEYKYWGQGTQVTVSS
B21: IV22 (VHH)
VHH: QVQLQESGGGLVQAGDSLRLSCAASGPSFNNGAMSWFRQAPGKEREFVAAIRWSGGGIRYADSVKGRFTISRDNAKNTLYLQMNSLKPEDTAVYYCAIDPRADLVATMTSIRYWGQGTQVTVSS
B22: IV37 (VHH)
VHH: QVQLQESGGGLVQAGDSLRLSCAAPGRSFSGGAMSWFRQVPGKEREFVAAIRWSGGGIRYADSVKGRFTISRDNAKNTFYLQMNSLKPEDTAVYYCAIDPRADLVATMTSIRYWGQGTQVTVSS
B23: IV38 (VHH)
VHH: QVQLQESGGGLVQAGGSLRLSCAASGPSFNNGAMSWFRQAPGKEREFVAAIRWSGGGIRYADSVKGRFTISRDNAKNTLYLQMNSLKPEDTAVYYCAIDPRADLVATMTSIRYWGQGTQVTVSS
B24: IV5 (VHH)
VHH: QVQLQQSGGGLVQAGGSLRLSCAASGRTFSTTGMGWFRQAPGKEREFVAAFWWTGGQTFYADSVKGRFTISGDNAGNTVDLQMNSLKPEDTAVYACAAMSKPRNLWRTDSYDYWGQGTQVTVSS
B25: IV27 (VHH)
VHH: QVQLQESGGGLVQAGGSLRLSCAASGSTFSTYAMGWFRQAPGKEREFVAAFWWTDEQTFYADSVKGRFTISRGNAKNTVDLQMNSLKPEDTAVYACAAMSKPYNLWRTDSYDYWGQGTQVTVSS
B26: IV25 (VHH)
VHH: QVQLQQSGGGLVQSGGSLSLSCAASGITLNNRVVGWFRQAPGKEREFVGRIMWSVGDTFYARSVKGRFTISRDNAKNTMYLQMNALKPEDTAVYYCAAARDPDLYTGQYEYWGQGTQVTVSS
B27: IV28 (VHH)
VHH: QVQLQESGGGLVQPGGSLRLSCSASGFAFDDYAMSWVRQAPGKGLEWVSSINWNGGSTYYAESMKGRFTISRDSAKNTLYLQMNSLKSEDTAVYYCAKGEGSANWGLDFGSWGQGTQVTVSS
B28: IV131 (VHH)
VHH: QVQLQQSGGGLVQAGGSLRLSCAASGSGFSFNPMGWYRQAPGKQRELVASITSGGTTNYVDSVKGRFTISRGNAKNTVYLQMNSLKPEDTAVYYCAAEGPRRRGSTWYTDNYWGQGTQVTVSS
B29: IV133 (VHH)
VHH: QVQLQQSGGGLVQPGGSLRLSCAASSSGFSFNPMGWYRQAPGKQRELVATMTSGGTTNYADSVKGRFTISRDNAKTTVYLQMNSLKPEDTAVYYCNARGPRRATTGWITDDYWGQGTQVTVSS
B30: IV144 (VHH)
VHH: QVQLQQSGGGLVQAGGSLRLSCAASGNIISFNPMGWHRQAPGKQRELVASITSGGSISYVDSVKGRFTISRDSAKNTIYLQMNSLKPEDTAVYFCAGEGPRRRGSTWYTDTYWGQGTQVTVSS

biological target: authentic influenza antigen H5N9, strain A/Turkey/Wisconsin/68 (influenza A virus A/Turkey/Wisconsin/68 (H5N9)); test: not given

First: B1
Second: B2
The Extinction at 450 nm in ELISA (extinction at 450 nm) of the first is lower: 0.099 for the first, 0.129 for the second.

Going from B3 to B4, the Extinction at 450 nm in ELISA (extinction at 450 nm) rises from 0.188 to 0.33.

Compared with B5, B6 is lower in Extinction at 450 nm in ELISA (extinction at 450 nm): 0.443 for the first, 0.113 for the second.

Compared with B7, B8 is lower in Extinction at 450 nm in ELISA (extinction at 450 nm): 0.194 for the first, 0.169 for the second.

Binder B9 has an Extinction at 450 nm in ELISA (extinction at 450 nm) of 0.372.

biological target: authentic influenza antigen of A/Turkey/Wisconsin/68, serotype H5N9 (influenza A virus A/Turkey/Wisconsin/68 (H5N9)); test: not given

B10 and B11 are the same in Extinction at 450 nm in ELISA (extinction at 450 nm): 0.047 for the first, 0.047 for the second.

B12 and B13 are the same in Extinction at 450 nm in ELISA (extinction at 450 nm): 0.047 for the first, 0.047 for the second.

Compared with B14, B15 is lower in Extinction at 450 nm in ELISA (extinction at 450 nm): 0.048 for the first, 0.045 for the second.

Compared with B16, B17 is lower in Extinction at 450 nm in ELISA (extinction at 450 nm): 0.05 for the first, 0.046 for the second.

Going from B18 to B19, the Extinction at 450 nm in ELISA (extinction at 450 nm) rises from 0.047 to 0.05.

B20 showed an Extinction at 450 nm in ELISA (extinction at 450 nm) of 0.048.

biological target: authentic influenza antigen of strain A/Turkey/Wisconsin/68, serotype H5N9 (influenza A virus A/Turkey/Wisconsin/68 (H5N9)); test: not given

First: B21
Second: B22
The Extinction at 450 nm in ELISA on AIV antigens (extinction at 450 nm) of the first is higher: 0.053 for the first, 0.048 for the second.

Compared with B23, B24 is higher in Extinction at 450 nm in ELISA on AIV antigens (extinction at 450 nm): 0.047 for the first, 0.049 for the second.

Going from B25 to B26, the Extinction at 450 nm in ELISA on AIV antigens (extinction at 450 nm) falls from 0.048 to 0.047.

B27 was tested, and the Extinction at 450 nm in ELISA on AIV antigens (extinction at 450 nm) was 0.047.

biological target: authentic AIV antigen / virus of influenza strain A/Turkey/Wisconsin/68 (H5N9) (influenza A virus A/Turkey/Wisconsin/68 (H5N9)); test: not given

Going from B28 to B29, the ELISA titer (NANOBODY concentration giving extinction 0.2) rises from 19.5 ng/mL to 29.4 ng/mL (1.5-fold).

B30 showed an ELISA titer (NANOBODY concentration giving extinction 0.2) of 31.6 ng/mL.

biological target: authentic AIV antigen / virus of influenza strain A/Turkey/Wisconsin/68 (H5N9) (influenza A virus A/Turkey/Wisconsin/68 (H5N9)); test: cell-based or functional assay

B28 and B29 cannot be ordered by HI titer: > 1000 µg/mL for the first, > 1000 µg/mL for the second.

In the case of B30, the HI titer is reported as > 1000 µg/mL.

B28 and B29 cannot be ordered by VNT titer: > 50 µg/mL for the first, > 50 µg/mL for the second.

B30 was tested, and the VNT titer was > 50 µg/mL.
